Some results are limits rather than exact numbers.

What all share (experiment): ELISA, grade 0-2 vs wildtype (2 similar, 1 diminished)
Test [1] deals with fHbp ID 22 E218A mutant (Neisseria meningitidis).
Test [2] addresses fHbp ID 22 R80A mutant (Neisseria meningitidis).
For test [3], the target named is fHbp ID 22 E248A mutant (Neisseria meningitidis).
Test [4] concerns the target fHbp ID 22 D211A mutant (Neisseria meningitidis).
Test [5] addresses fHbp ID 1 E218A/E239A double mutant (Neisseria meningitidis) (UniProt E6MV22).
Test [6] has as its target fHbp ID 15 E241K mutant (Neisseria meningitidis).
Test [7] concerns the target fHbp ID 22 E202A mutant (Neisseria meningitidis).
In test [8] the target is fHbp ID 22 D201A mutant (Neisseria meningitidis).
The target in test [9] is fHbp ID 77 K113A mutant (Neisseria meningitidis).
Test [10] concerns the target fHbp ID 22 Q38A mutant (Neisseria meningitidis).
For test [11], the target named is fHbp ID 77 D121A mutant (Neisseria meningitidis).
For test [12], the target named is fHbp ID 77 K119A mutant (Neisseria meningitidis).
The target of test [13] is fHbp ID 22 Q126A mutant (Neisseria meningitidis).
Test [14] has as its target fHbp ID 77 R41S/K113A double mutant (Neisseria meningitidis).
For test [15], the target named is fHbp ID 1 E218A mutant (Neisseria meningitidis) (UniProt E6MV22).
In test [16] the target is fHbp ID 1 Q113A mutant (Neisseria meningitidis) (UniProt E6MV22).
The target of test [17] is fHbp ID 1 Q87A mutant (Neisseria meningitidis) (UniProt E6MV22).
Test [18] addresses fHbp ID 77 R41S/K119A double mutant (Neisseria meningitidis).
For test [19], the target named is fHbp ID 1 R130A mutant (Neisseria meningitidis) (UniProt E6MV22).
The target in test [20] is fHbp ID 77 R41S/D121A double mutant (Neisseria meningitidis).

With anti-fHbp monoclonal antibody JAR 35, the percent decrease in MAb binding compared with wildtype in test [1], in test [2], in test [3] and in [4] was < 30% throughout.

On to “anti-fHbp monoclonal antibody JAR 5 (murine, IgG2b)”, for which, in test [5], the percent decrease in MAb binding compared with wildtype is < 30%. The percent decrease in mAb binding compared with wildtype fHbp in test [6] is < 30%.

Take anti-fHbp monoclonal antibody JAR 31: the percent decrease in mAb binding compared with wildtype fHbp in test [7] is < 30%; in test [8] it was > 30%; in test [9] it was < 30%; in test [10] it was < 30%; in test [11], < 30%; in test [12], < 30%. Also, the percent decrease in mAb binding compared with wildtype fHbp in test [13] was < 30%.

Turning to “anti-fHbp monoclonal antibody JAR 4 (murine)”, the percent decrease in MAb binding compared with wildtype in [14] is > 30%; in test [15], < 30%; in test [18], > 30%; in [19] it was > 30%; in [20], > 30%. The percent decrease in mAb binding compared with wildtype fHbp in [7] was > 30%; in test [16] it was < 30%; in test [8], > 30%; in test [17], < 30%; in [10], > 30%; in test [13], < 30%.
